# Potato spindle tuber viroid, loop 6: variant abundance in plants

PSTVd intermediate strain, loop 6: wild type UGACCGCGAG, pool pattern UNNNCGNNNG; upper and lower strand joined, each 5' to 3', the first 5 letters being the upper strand, closing pairs included.

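A pool of all variants was put on leaves of three Nicotiana benthamiana plants. Progeny were sequenced from the inoculated region (day 5), the margin of the inoculated leaf (day 10) and systemic leaves (day 12).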

Values are reads per thousand in the sample; higher means more abundant, 0 means not found. Each site shows the three plants. "Pool" is the share in the plasmid pool used as inoculum, on the same scale. The inoculated region was read from the minus strand, the other sites from the plus strand. IR is the inoculated region, LM the leaf margin, Sys the systemic leaves. The authors trace changes outside the varied positions to PCR and sequencing errors or to mutation in the plant; presence does not show that a variant is infectious alone.

sequence | pool | IR | LM | Sys
UAUGCGUUUG | 0.340 | 0.0695 0.0719 0.129 | 0 0 0.0232 | 0 0 0
UAUGCUACGG | 0.0131 | 0 0 0 | 0 0 0 | 0 0 0
UAUGCUGUGG | 0.0131 | 0 0 0 | 0 0 0 | 0 0 0
UAUUCGAAAG | 0.288 | 0.156 0.0539 0.0922 | 0 0 0.0232 | 0 0 0
UAUUCGAACG | 0.222 | 0.122 0.144 0.0738 | 0 0 0.0232 | 0 0 0
UAUUCGAAGG | 0.157 | 0.0348 0.0180 0.111 | 0 0 0.0232 | 0 0 0
UAUUCGAAUG | 0.405 | 0.139 0.0180 0.0922 | 0 0 0 | 0 0 0
UAUUCGACAG | 0.222 | 0.104 0.0898 0.0738 | 0.0552 0 0.0464 | 0 0 0
UAUUCGACCG | 0.222 | 0.0348 0.144 0.0738 | 0 0 0 | 0 0 0
UAUUCGACGG | 0.222 | 0.139 0.0539 0.0369 | 0 0 0 | 0 0 0
UAUUCGACUG | 0.392 | 0.104 0.0359 0.166 | 0 0 0 | 0 0 0
UAUUCGAGAG | 0.222 | 0.209 0.0719 0.0738 | 0 0 0 | 0 0 0
UAUUCGAGCG | 0.301 | 0.0695 0.0539 0.0184 | 0 0 0 | 0 0 0
UAUUCGAGGG | 0.235 | 0.0348 0.0539 0.0553 | 0.0276 0 0 | 0 0 0
UAUUCGAGUG | 0.170 | 0.122 0.0719 0.0553 | 0 0 0.0232 | 0 0 0
UAUUCGAUAG | 0.170 | 0.139 0.108 0.111 | 0.0276 0 0.139 | 0 0 0
UAUUCGAUCG | 0.235 | 0.156 0.126 0.0553 | 0 0 0 | 0 0 0
UAUUCGAUGG | 0.484 | 0.0869 0.0359 0.0738 | 0 0 0 | 0 0 0.0205
UAUUCGAUUG | 0.405 | 0.122 0.0719 0.129 | 0.0276 0 0 | 0 0 0
UAUUCGCAAG | 0.170 | 0.0521 0.0539 0.166 | 0 0 0.0232 | 0 0 0
UAUUCGCACG | 0.209 | 0.174 0.144 0.0922 | 0 0 0 | 0 0 0
UAUUCGCAGG | 0.275 | 0.156 0.108 0.0738 | 0.0276 0 0 | 0 0 0
UAUUCGCAUG | 0.209 | 0.0521 0.144 0.0738 | 0 0 0 | 0 0 0
UAUUCGCCAG | 0.235 | 0.0695 0.0719 0.0922 | 0 0 0 | 0 0 0
UAUUCGCCCG | 0.301 | 0.0348 0.126 0.129 | 0 0 0.0928 | 0 0 0
UAUUCGCCGG | 0.235 | 0.0869 0.126 0.0553 | 0.0276 0 0.0232 | 0 0 0
UAUUCGCCUG | 0.222 | 0.0869 0.0539 0.0553 | 0.0276 0 0 | 0 0 0
UAUUCGCGAG | 0.288 | 0.209 0.180 0.129 | 0.0552 0.0252 0.0928 | 0 0.0606 0.103
UAUUCGCGCG | 0.196 | 0.0174 0.0719 0.0553 | 0.0276 0 0 | 0 0 0
UAUUCGCGGG | 0.144 | 0.0869 0.0898 0.0738 | 0.0552 0 0.0696 | 0 0 0
UAUUCGCGUG | 0.170 | 0.139 0.108 0.0553 | 0 0 0.0232 | 0 0 0
UAUUCGCUAG | 0.183 | 0.191 0.0539 0.0738 | 0 0 0.0232 | 0 0 0
UAUUCGCUCG | 0.288 | 0.0869 0.0898 0.0738 | 0 0 0 | 0 0 0
UAUUCGCUGG | 0.261 | 0.139 0.0539 0 | 0 0 0.0232 | 0 0 0
UAUUCGCUUG | 0.340 | 0.243 0.0180 0.0369 | 0.0276 0 0.0928 | 0 0 0
UAUUCGGAAG | 0.118 | 0.122 0.0719 0.0369 | 0 0 0 | 0 0 0
UAUUCGGACG | 0.392 | 0.0869 0.0719 0.0369 | 0 0 0 | 0 0 0
UAUUCGGAGG | 0.183 | 0.0695 0.0898 0.0184 | 0 0 0 | 0 0 0
UAUUCGGAUG | 0.340 | 0.817 0.665 0.479 | 0.0552 0.151 0.0696 | 0 0 0
UAUUCGGCAG | 0.288 | 0.504 0.575 0.609 | 0.138 0.0757 0.139 | 0 0 0
UAUUCGGCCG | 0.235 | 0.678 0.539 0.498 | 0.0276 0.0504 0 | 0 0 0
UAUUCGGCGG | 0.327 | 0.122 0.108 0.0369 | 0 0 0.0232 | 0 0 0
UAUUCGGCUG | 0.392 | 0.626 0.557 0.793 | 0.110 0.126 0.0232 | 0 0.101 0.0205
UAUUCGGGAG | 0.183 | 0.660 0.790 0.535 | 0.0276 0.0252 0.162 | 0 0 0
UAUUCGGGCG | 0.157 | 0.938 0.557 0.443 | 0.221 0.0504 0.139 | 0 0 0
UAUUCGGGGG | 0.0654 | 0.104 0.0539 0.111 | 0 0 0 | 0 0 0
UAUUCGGGUG | 0.458 | 0.591 0.754 0.479 | 0.138 0.0504 0.0696 | 0 0 0.0205
UAUUCGGUAG | 0.314 | 0.139 0.0719 0.0184 | 0 0 0 | 0 0 0
UAUUCGGUCG | 0.536 | 0.122 0.162 0.0922 | 0 0 0 | 0 0 0
UAUUCGGUGG | 0.353 | 0.139 0.0180 0.166 | 0 0 0.0232 | 0 0 0.0205
UAUUCGGUUG | 0.170 | 0.139 0.0359 0.0184 | 0 0 0 | 0 0 0
UAUUCGUAAG | 0.144 | 0.104 0.0539 0.0922 | 0 0 0 | 0 0 0
UAUUCGUACG | 0.222 | 0.139 0 0 | 0 0 0.0232 | 0 0 0
UAUUCGUAGG | 0.379 | 0.122 0.0539 0.0369 | 0 0 0.0232 | 0 0 0
UAUUCGUAUG | 0.458 | 0.174 0.0719 0.129 | 0.387 0 0.0232 | 0 0 0
UAUUCGUCAG | 0.261 | 0.122 0.0539 0.0738 | 0 0 0.0232 | 0 0 0
UAUUCGUCCG | 0.196 | 0.139 0.0359 0.0553 | 0 0 0 | 0 0 0
UAUUCGUCGG | 0.301 | 0.122 0.0719 0.0369 | 0.0276 0 0 | 0 0 0
UAUUCGUCUG | 0.366 | 0.122 0.0539 0.129 | 0 0 0 | 0 0 0
UAUUCGUGAG | 0.288 | 0.0348 0.198 0.148 | 0.0276 0 0 | 0 0 0
UAUUCGUGCG | 0.301 | 0.174 0.0539 0.0738 | 0 0 0 | 0 0 0
UAUUCGUGGG | 0.183 | 0.139 0.0898 0.0184 | 0 0 0 | 0 0 0
UAUUCGUGUG | 0.562 | 0.104 0.126 0.0738 | 0.0276 0 0 | 0 0 0.0205
UAUUCGUUAG | 0.575 | 0.174 0.162 0.129 | 0 0 0 | 0 0 0

A selection of 7 entries from above:

{"sequence": "UAUUCGCGCG", "pool": "0.196", "IR": "0.0174 0.0719 0.0553", "LM": "0.0276 0 0", "Sys": "0 0 0"}
{"sequence": "UAUUCGAAAG", "pool": "0.288", "IR": "0.156 0.0539 0.0922", "LM": "0 0 0.0232", "Sys": "0 0 0"}
{"sequence": "UAUUCGCUCG", "pool": "0.288", "IR": "0.0869 0.0898 0.0738", "LM": "0 0 0", "Sys": "0 0 0"}
{"sequence": "UAUUCGACUG", "pool": "0.392", "IR": "0.104 0.0359 0.166", "LM": "0 0 0", "Sys": "0 0 0"}
{"sequence": "UAUUCGGGUG", "pool": "0.458", "IR": "0.591 0.754 0.479", "LM": "0.138 0.0504 0.0696", "Sys": "0 0 0.0205"}
{"sequence": "UAUUCGAAUG", "pool": "0.405", "IR": "0.139 0.0180 0.0922", "LM": "0 0 0", "Sys": "0 0 0"}
{"sequence": "UAUUCGUGGG", "pool": "0.183", "IR": "0.139 0.0898 0.0184", "LM": "0 0 0", "Sys": "0 0 0"}

Samples held 36,220 to 57,551 reads, so the smallest values rest on one or two reads. Wild type was 20.7 per thousand in the pool and the most common sequence in every sample (inoculated region 195, 198, 203; leaf margin 629, 591, 734; systemic leaves 942, 870, 868).

Reference: Wu et al. 2024, doi:10.1371/journal.ppat.1012142.